Assay results from paper PMC6855212, “Antibacterial activity of synthetic 1,3‐bis(aryloxy)propan‐2‐amines against Gram‐positive bacteria” (MicrobiologyOpen, 2019).

Assays:
Vero cells = test: Cytotoxicity, MTT reduction assay; format: cell-based; conditions: CC50 divided by MIC; for SI Strain 5749 / SI Strain 5912 / SI Strain 6154 / SI Strain 6613 / SI Strain 6100: MRSA
Experimental: (§1) The cytotoxicity of active compounds to mammalian cells was assessed using the MTT reduction assay (Mosmann, 1983). Vero and BSC‐40 cells were seeded in 96‐well plates (8 × 10^4 cells per well) and incubated at 37°C and 5% CO2 atmosphere. After 24 hr of incubation, 200 μL of fresh medium containing a serial dilution of compounds (10–1.25 μg/ml) were added to the plates. After 48 hr of incubation in the same conditions, 100 μL of MTT solution in MEM or DMEM (5 mg/ml) was added to each well and incubated for 3 hr at 37°C and 5% CO2 atmosphere. The medium was removed and 100 μL of DMSO was used to solubilize formazan crystals. Absorbance at 570 nm of each well was read using a spectrophotometer (VersaMax, Molecular Devices).

BSC‐40 cells = test: Cytotoxicity, MTT reduction assay; format: cell-based; conditions: CC50 divided by MIC; for SI Strain 5749 / SI Strain 5912 / SI Strain 6154 / SI Strain 6613 / SI Strain 6100: MRSA
Experimental: as §1

MRSA strains = test: MBC, MRSA strains taken together; format: cell-based, Staphylococcus aureus
Experimental: (§2) After incubation at 35°C for 24 hr, the colonies were counted and the percentage of inhibition was calculated. MBC is defined as the lowest compound's concentration that inhibits at least 99.9% of the bacterial cell count compared to nontreated viability control (Clinical and Laboratory Standards Institute, 1999).

S. pyogenes ATCC 19615 = test: MBC, plating of wells without growth; format: cell-based, Streptococcus pyogenes; conditions: ratio in parentheses
Experimental: as §2

S. aureus ATCC 29212 = test: MBC, plating of wells without growth; format: cell-based, Staphylococcus aureus; conditions: ratio in parentheses
Experimental: as §2

E. faecalis ATCC 29213 = test: MBC, plating of wells without growth; format: cell-based, Enterococcus faecalis; conditions: ratio in parentheses
Experimental: as §2

| SMILES | SI Staphylococcus aureus (Vero cells) | SI Streptococcus pyogenes (Vero cells) | SI Strain 5749 (Vero cells) | SI Strain 5912 (Vero cells) | SI Strain 6154 (Vero cells) | SI Strain 6613 (Vero cells) | SI Staphylococcus aureus (BSC‐40 cells) | SI Streptococcus pyogenes (BSC‐40 cells) | SI Strain 5749 (BSC‐40 cells) | SI Strain 5912 (BSC‐40 cells) | SI Strain 6154 (BSC‐40 cells) | SI Strain 6613 (BSC‐40 cells) | MBC/MIC S. pyogenes ATCC 19615 (S. pyogenes ATCC 19615) | SI Strain 6100 (Vero cells) | SI Strain 6100 (BSC‐40 cells) | further results |
| --- | --- | --- | --- | --- | --- | --- | --- | --- | --- | --- | --- | --- | --- | --- | --- | --- |
| NC(COc1ccc(Cl)cc1)COc1ccc(Cl)cc1 [CPD18] | 0.6 | 0.6 | 0.6 | 0.6 | 0.6 | 0.6 | 0.57 | 0.57 | 0.57 | 0.57 | 0.57 | 0.57 |  |  |  |  |
| NC(COc1cccc2ccccc12)COc1cccc2ccccc12 [CPD20] |  |  |  |  |  |  |  |  |  |  |  |  |  |  |  | MBC compared with MIC (MRSA strains; MRSA strains nº 5749, 5912, 6100 and 6613): same values |
| NC(COc1ccc2ccccc2c1)COc1ccc2ccccc2c1 [CPD21] | 0.43 | 0.43 | 0.43 |  |  | 0.43 | 0.51 | 0.51 | 0.51 | 1.01 | 0.51 | 0.51 | 1.0 | 0.43 | 0.51 | MBC/MIC S. pyogenes ATCC 19615 (S. pyogenes ATCC 19615; listed as CPD 21): equivalence; MBC/MIC S. aureus ATCC 29212 (S. aureus ATCC 29212): 1.0; MBC/MIC S. aureus ATCC 29212 (S. aureus ATCC 29212; listed as CPD 21): equivalence |
| Cl.NC(COc1ccc(Cl)c(Cl)c1)COc1ccc(Cl)c(Cl)c1 [CPD22, 1,3‐Bis(3,4‐dichlorophenoxy)propan‐2‐aminium chloride] | 1.09 | 2.19 | 2.19 | 2.19 | 2.19 | 1.09 | 0.88 | 1.77 | 1.77 | 1.77 | 1.77 | 0.88 | 4.0 | 2.19 | 1.77 | MBC/MIC E. faecalis ATCC 29213 (E. faecalis ATCC 29213): > 2.0; MBC compared with MIC (MRSA strains; MRSA 43300, 5749, 5912 and 6613): same values; SI Enterococcus faecalis (Vero cells): 1.09; SI MRSA ATCC 43300 (Vero cells): 1.09; SI Enterococcus faecalis (BSC‐40 cells): 0.88; SI MRSA ATCC 43300 (BSC‐40 cells): 0.88 |
